Data source: PubChem BioAssay AID1259414 (Drosophila RNAi Screening Center, 2018)

Screen: 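Host factors increasing or decreasing Wolbachia levels in cultured fly cells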 (primary screen)
Cells: Drosophila JW18 cells infected with Wolbachia
Reagents: long dsRNA against Drosophila genes, 0.25 µg dsRNA per well of a 384-well plate
Time to read-out: 5 days
Treatment: cells persistently infected with Wolbachia before knock-down; no added drug
Read-out: 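Automated imaging of bacterial rRNA staining divided by host cell count, reported as plate-normalised robust z-score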
Direction: Wolbachia per cell robust z: higher = more Wolbachia per host cell than the plate typical
Active means: 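Active if absolute robust z reaches 1.5 in two or more of three replicates, leaving out multi- or no-target dsRNAs, genes unexpressed in JW18 and A1 wells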
The deposit covers about 24,000 reagents; below is a random part of those with a known target gene and a result. Of all reagents, about 1,210 (5%) got an active call. 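Inactive calls also include excluded dsRNAs with several or no targets, genes unexpressed in JW18, and well A1, regardless of score.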 The numbers tell different reagents against one gene apart. A plus sign joins genes that one reagent is predicted to hit.

Wolbachia per cell robust z, rep 1 | Wolbachia per cell robust z, rep 2 | Wolbachia per cell robust z, rep 3 | activity call | gene | dsRNA no.
0.111 | 0.88 | 0.498 | inactive | ACXE | 1
-1.51 | 0.95 | 0.738 | inactive | l(3)80Fj | 1
-1.16 | -1.77 | -0.0171 | inactive | PCNA2 | 1
0.518 | -0.013 | 0.00167 | inactive | CG34334 | 1
-0.522 | -0.43 | -3.07 | inactive | RpL10Aa | 1
1.18 | 1.53 | -5.79 | inactive | Faf2 | 1
-0.32 | -1.1 | -0.389 | inactive | CG9114 | 1
1.13 | 0.978 | -0.626 | inactive | CSN5 | 1
-1.25 | 0.668 | 1.02 | inactive | CSN5 | 2
0.456 | 0.519 | 1.21 | inactive | CSN5 | 3
0.109 | 0.0854 | -1.98 | inactive | GluRIIE | 1
-0.391 | 1.35 | 1.2 | inactive | GluRIIE | 2
0.466 | 0.18 | 0.59 | inactive | GluRIIE | 3
0.425 | -5.46 | 0.958 | inactive | CG2004 | 1
-1.17 | 0.235 | -0.616 | inactive | CG14971 | 1
-1.61 | -0.559 | 0.846 | inactive | CG1463 | 1
-0.365 | -1.94 | -0.822 | inactive | Xrcc2 | 1
-0.502 | -3.94 | -1.08 | inactive | Xrcc2 | 2
1.32 | 1.03 | 2.52 | inactive | RpS23 | 1
3.54 | 2.88 | 5.14 | active | RpS23 | 2
0.655 | -1.57 | -0.000811 | inactive | Idh3g | 1
-0.0561 | -0.183 | -0.676 | inactive | Idh3g | 2
-0.863 | -0.26 | 0.113 | inactive | CG9636 | 1
-0.0261 | -1.19 | 0.519 | inactive | Srp68 | 1
0.787 | 0.998 | 0.694 | inactive | Srp68 | 2
-0.694 | 0.0308 | -0.327 | inactive | ppk21 | 1
0.153 | -0.611 | 0.504 | inactive | CG32720 | 1
0.809 | 0.824 | -1.53 | inactive | boly | 1
-7.65 | 0.578 | 0.216 | inactive | RpS10a | 1
-0.257 | 1.67 | 0.481 | inactive | RpS10a | 2
0.11 | -0.141 | -1.42 | inactive | CG7565 | 1
-0.186 | 0.523 | -9.1 | inactive | Octbeta3R | 1
0.23 | -0.805 | 0.14 | inactive | Octbeta3R | 2
-2.86 | -0.0115 | 0.488 | inactive | Octbeta3R | 3
-1.1 | -0.909 | -0.455 | inactive | Octbeta3R | 4
0.961 | 0.0858 | 1.08 | inactive | Octbeta3R | 5
-0.162 | -3.09 | -1.84 | active | Octbeta3R | 6
0.213 | 1.07 | -0.433 | inactive | Octbeta3R | 7
-0.202 | -0.208 | -1.14 | inactive | Octbeta3R | 8
0.0825 | 0.355 | 0.713 | inactive | CG15767 | 1
0.523 | -0.0927 | -0.978 | inactive | CG15767 | 2
-2.13 | -0.583 | -0.506 | inactive | CG32236 | 1
-0.0809 | 0.328 | 0.666 | inactive | dwg | 1
1.3 | -0.926 | 0.272 | inactive | dwg | 2
-0.0102 | -3.2 | 0.256 | inactive | Lamtor4 | 1

Reformatted: entries from further up.
RpS23 #2
- Wolbachia per cell robust z, rep 1: 3.54
- Wolbachia per cell robust z, rep 2: 2.88
- Wolbachia per cell robust z, rep 3: 5.14
- activity call: active

Idh3g #1
- Wolbachia per cell robust z, rep 1: 0.655
- Wolbachia per cell robust z, rep 2: -1.57
- Wolbachia per cell robust z, rep 3: -0.000811
- activity call: inactive

Idh3g #2
- Wolbachia per cell robust z, rep 1: -0.0561
- Wolbachia per cell robust z, rep 2: -0.183
- Wolbachia per cell robust z, rep 3: -0.676
- activity call: inactive

CG9636
- Wolbachia per cell robust z, rep 1: -0.863
- Wolbachia per cell robust z, rep 2: -0.26
- Wolbachia per cell robust z, rep 3: 0.113
- activity call: inactive

Srp68 #1
- Wolbachia per cell robust z, rep 1: -0.0261
- Wolbachia per cell robust z, rep 2: -1.19
- Wolbachia per cell robust z, rep 3: 0.519
- activity call: inactive

Srp68 #2
- Wolbachia per cell robust z, rep 1: 0.787
- Wolbachia per cell robust z, rep 2: 0.998
- Wolbachia per cell robust z, rep 3: 0.694
- activity call: inactive

ppk21
- Wolbachia per cell robust z, rep 1: -0.694
- Wolbachia per cell robust z, rep 2: 0.0308
- Wolbachia per cell robust z, rep 3: -0.327
- activity call: inactive

CG32720
- Wolbachia per cell robust z, rep 1: 0.153
- Wolbachia per cell robust z, rep 2: -0.611
- Wolbachia per cell robust z, rep 3: 0.504
- activity call: inactive

boly
- Wolbachia per cell robust z, rep 1: 0.809
- Wolbachia per cell robust z, rep 2: 0.824
- Wolbachia per cell robust z, rep 3: -1.53
- activity call: inactive

RpS10a #1
- Wolbachia per cell robust z, rep 1: -7.65
- Wolbachia per cell robust z, rep 2: 0.578
- Wolbachia per cell robust z, rep 3: 0.216
- activity call: inactive

RpS10a #2
- Wolbachia per cell robust z, rep 1: -0.257
- Wolbachia per cell robust z, rep 2: 1.67
- Wolbachia per cell robust z, rep 3: 0.481
- activity call: inactive

The list goes on.
Wolbachia per cell robust z, rep 1 | Wolbachia per cell robust z, rep 2 | Wolbachia per cell robust z, rep 3 | activity call | gene | dsRNA no.
0.0316 | -0.241 | 0.145 | inactive | CG7778 | 1
-2.69 | -1.15 | 0.541 | inactive | CG7778 | 2
1.45 | 0.498 | -1.19 | inactive | CSN4 | 1
0.603 | 0.513 | 0.606 | inactive | MED24 | 1
0.235 | -0.252 | -0.661 | inactive | CG14400 | 1
0.26 | 0.963 | 0.875 | inactive | CG4151 | 1
0.492 | -1.39 | -1.39 | inactive | CG14626 | 1
-0.584 | -0.24 | -0.104 | inactive | CG14626 | 2
-8.96 | -0.453 | 0.0711 | inactive | RfC4 | 1
-1.15 | 0.408 | -1.16 | inactive | RfC4 | 2
0.353 | 0.953 | -2.18 | inactive | mia | 1
0.674 | -0.0849 | -0.0181 | inactive | CG8072 | 1
-1.88 | -1.64 | -0.183 | inactive | Gr64d + Gr64e | 1
-1.42 | -1.05 | -2.8 | inactive | ath | 1
0.906 | -0.0263 | -2.8 | inactive | CG8202 | 1
-1.45 | -1.26 | -2.31 | inactive | Ir94f | 1
0.607 | -3.08 | -0.0463 | inactive | Ndc80 | 1
-2.48 | -0.0605 | -0.452 | inactive | Ndc80 | 2
-1.34 | -0.178 | -0.438 | inactive | Smg5 | 1
-1.74 | -1.75 | -1.54 | active | Smg5 | 2
-0.34 | -2.01 | -3.63 | inactive | Pbp49 + CG42516 | 1
1.15 | -0.681 | 0.294 | inactive | CG10804 | 1
-0.312 | -0.162 | 0.93 | inactive | CG15642 + CG6299 + CG6294 | 1
0.602 | 0.603 | -1.3 | inactive | CG10616 | 1
0.00745 | -0.37 | -0.715 | inactive | CG32248 | 1
0.734 | -0.116 | 0.0217 | inactive | CG32248 | 2
-8.79 | -2.36 | 0.0595 | active | raw | 1
1.29 | 1.04 | -4.15 | inactive | raw | 2
1.01 | -0.00193 | -0.0162 | inactive | raw | 3
-0.651 | -0.000127 | 0.725 | inactive | mld | 1
0.18 | -0.64 | -0.599 | inactive | mld | 2
0.276 | -3.32 | -0.71 | inactive | mld | 3
1.29 | 0.334 | 0.664 | inactive | CG43346 + CG43345 | 1
-0.00545 | -7.86 | -3.06 | active | Cyp9f3 | 1
1.33 | 0.17 | -2.86 | inactive | Cyp9f3 | 2
0.0904 | -0.45 | 0.0951 | inactive | CG3270 | 1
-2.22 | 0.517 | 0.59 | inactive | CR18275 + CG13373 | 1
0.488 | -2.41 | 0.0038 | inactive | CG34280 | 1
-3.84 | 0.55 | 1.49 | inactive | CG33784 | 1
-2.52 | -0.0218 | 0.213 | inactive | veli | 1
-0.988 | -0.729 | -0.88 | inactive | veli | 2
-0.0297 | 0.907 | 1.34 | inactive | wac | 1
0.554 | 0.301 | -6.81 | inactive | wac | 2
